Fold change is the IC50 on the isolate divided by the IC50 on a reference virus; 1 = unchanged, higher = more resistant. Changes are given against the subtype B consensus. No active / inactive call. The values were gathered from many studies (numbered anew) with different assays, which the source does not name. Most viruses are clinical isolates; some are laboratory strains or clones with known resistance changes. Isolates with mixed residues are left out; stretches that were not sequenced show no change. Round top values that many isolates share are read here as limits; other very high values and 0.1 may be limits too. The protease changes I3V and N37S, insertions and deletions cannot be read from the source.
How the values were obtained:
Test in all cases: fold change of IC50 against reference virus; higher = more resistant; Cell-culture drug susceptibility tests of virus bearing the protease of each isolate, gathered from many studies.
indinavir = compound: CC(C)(C)NC(=O)[C@@H]1CN(Cc2cccnc2)CCN1C[C@@H](O)C[C@@H](Cc1ccccc1)C(=O)N[C@H]1c2ccccc2C[C@H]1O [indinavir]
saquinavir = compound: CC(C)(C)NC(=O)[C@@H]1C[C@@H]2CCCC[C@@H]2CN1C[C@@H](O)[C@H](Cc1ccccc1)NC(=O)[C@H](CC(N)=O)NC(=O)c1ccc2ccccc2n1 [saquinavir]
ritonavir = compound: CC(C)c1nc(CN(C)C(=O)N[C@H](C(=O)N[C@@H](Cc2ccccc2)C[C@H](O)[C@H](Cc2ccccc2)NC(=O)OCc2cncs2)C(C)C)cs1 [ritonavir]
tipranavir = compound: CCC[C@@]1(CCc2ccccc2)CC(O)=C([C@H](CC)c2cccc(NS(=O)(=O)c3ccc(C(F)(F)F)cn3)c2)C(=O)O1 [tipranavir]
atazanavir = compound: COC(=O)N[C@H](C(=O)N[C@@H](Cc1ccccc1)[C@@H](O)CN(Cc1ccc(-c2ccccn2)cc1)NC(=O)[C@@H](NC(=O)OC)C(C)(C)C)C(C)(C)C [atazanavir]
nelfinavir = compound: Cc1c(O)cccc1C(=O)N[C@@H](CSc1ccccc1)[C@H](O)CN1C[C@H]2CCCC[C@H]2C[C@H]1C(=O)NC(C)(C)C [nelfinavir]
lopinavir = compound: Cc1cccc(C)c1OCC(=O)N[C@@H](Cc1ccccc1)[C@@H](O)C[C@H](Cc1ccccc1)NC(=O)[C@H](C(C)C)N1CCCNC1=O [lopinavir]

Test System	fold change of IC50 against reference virus (indinavir)	fold change of IC50 against reference virus (saquinavir)	fold change of IC50 against reference virus (ritonavir)	fold change of IC50 against reference virus (tipranavir)	fold change of IC50 against reference virus (atazanavir)	fold change of IC50 against reference virus (nelfinavir)	fold change of IC50 against reference virus (lopinavir)
HIV-1 isolate 86 (protease changes: T12K, study 64)	0.7	0.6	0.8	0.7	0.6	0.7	0.7
HIV-1 isolate 134 (protease changes: L10V I13V M46I L63P A71T V77I L90M, study 64)	2.5	4.4	8.4	1.8	3	7.9	3.8
HIV-1 isolate 172 (protease changes: I13V R41K L63P H69R I93L, study 64)	1.3	0.6	1.1	1.1	1.1	1.7	0.7
HIV-1 isolate 194 (protease changes: R57K V77I, study 64)	0.7	0.5	1	0.5	0.5	0.9	0.6
HIV-1 isolate 208 (protease changes: L10I K20R L24I E35D M36I N37E M46I I54V Q61N I62V L63P I64V A71V I72V T74S L76V V82T I93L, study 64)	≥ 500	8.2	84	1.4	7.7	31	≥ 500
HIV-1 isolate 221 (protease changes: L10I I13V K20I L33V M46L L63P A71T I72V T74K I85V N88D L90M I93L, study 64)	15	68	6.5	0.7	25	82	2
HIV-1 isolate 222 (protease changes: T12R I15V L19I R41K H69Y, study 64)	0.7	0.9	0.9	0.7	0.7	1.1	0.7
HIV-1 isolate 260 (protease changes: I13V Q18H L63P, study 64)	0.7	0.7	0.8	0.6	0.5	1.1	0.5
HIV-1 isolate 277 (protease changes: L10I L24I R41K M46I I54V I64V V77I V82A, study 64)	4.9	0.9	23	0.5	1.8	5.2	12
HIV-1 isolate 284 (protease changes: E35D L63P, study 64)	1	1	1	0.7	1.2	1.2	0.8
HIV-1 isolate 291 (protease changes: K14R I15V R41K L63P, study 64)	0.7	0.9	0.7	1.2	0.8	1	0.8
HIV-1 isolate 309 (protease changes: L10I L63P I93L, study 64)	2.2	1.4	1.4	1.1	1.5	3.3	1.4
HIV-1 isolate 314 (protease changes: T4S L10I K20R E35D M36I L63P H69Q L90M, study 64)	1.6	2.5	3.1	1	1.5	3.3	1.4
HIV-1 isolate 317 (protease changes: I62V L63S, study 64)	0.7	0.6	0.8	0.6	0.8	0.9	0.8
HIV-1 isolate 331 (protease changes: L10I I13V V32I L33F M36I R41K I47A L63P K70E A71V V82A L90M I93L, study 64)	21	0.5	34	3.5	4.4	9	≥ 500
HIV-1 isolate 334 (protease changes: I62V L63S, study 15)	0.8	0.8	0.7	0.8	1	1.1	0.9
HIV-1 isolate 359 (protease changes: L10I T12E K20I E35D I62V L63P A71V G73S V77I L90M, study 64)	11	7.7	6.6	0.5	6.7	18	2.3
HIV-1 isolate 379 (protease changes: L10F L19I K20R L23I E35D M36I R41K M46I I50V F53L I54V L63P I64V I66V A71I G73T L90M I93L, study 64)	5	≥ 1000	≥ 800	0.5	47	93	94
HIV-1 isolate 388 (protease changes: L10F I13V L23I L33F I54V R57K Q58E D60E L63P A71V L76V V82A I93L, study 15)	42	6.4	500	2.1	5.6	23	≥ 500

Test System	fold change of IC50 against reference virus (indinavir)	fold change of IC50 against reference virus (saquinavir)	fold change of IC50 against reference virus (ritonavir)	fold change of IC50 against reference virus (tipranavir)	fold change of IC50 against reference virus (atazanavir)	fold change of IC50 against reference virus (nelfinavir)	fold change of IC50 against reference virus (lopinavir)
HIV-1 isolate 394 (protease changes: L10I L19I K20R E35D M36I R41K M46I I54V L63P I64V G73T V82A L90M I93L C95F, study 64)	43	19	104	1.6	48	30	48
HIV-1 isolate 408 (protease changes: L63T V77I, study 64)	0.4	0.6	0.5	0.6	0.8	0.7	0.6
HIV-1 isolate 426 (protease changes: L10V I13V K20T L33F M46I Q58E I62V L63P V77I N88G, study 64)	2.1	0.4	0.9	1.2	0.9	2.9	2.7
HIV-1 isolate 439 (protease changes: I15V I62V L63P, study 64)	0.6	0.7	1	1.1	0.7	0.9	0.9
HIV-1 isolate 458 (protease changes: I15V M36I L63C, study 64)	0.6	0.7	0.5	0.8	0.6	0.6	0.5
HIV-1 isolate 466 (protease changes: L10I T12I N37D M46L G48V R57K L63Q I64V A71V I72T V82A I84V, study 64)	18	120	44	0.9	22	7.2	5.4
HIV-1 isolate 475 (protease changes: K14R L33V R41K I64V, study 64)	1.7	1.2	2.1	2.4	1.7	1.6	1.1
HIV-1 isolate 485 (protease changes: L10I I15V L63T I93L, study 64)	1.4	1.4	1.3	1.4	1.3	1.7	0.9
HIV-1 isolate 490 (protease changes: L10I V11I T12P I13V K14R L19V L33F M46L G48M I54M L63T A71V I72T T74A P79S V82A I84V I93L, study 64)	7.7	64	47	3.1	18	8	38
HIV-1 isolate 496 (protease changes: L10I K20R L24I L33F E35D M36I N37D M46L I54V L63P A71T V82A T91S, study 64)	20	8.8	≥ 800	1.2	38	43	113
HIV-1 isolate 508 (protease changes: I13V K14R E35D M36I R41K R57K H69K L89M, study 18)	1.1	1.4	1.9	2.2	1.3	1.3	0.7
HIV-1 isolate 511 (protease changes: T4S L10H I13V E35D M36V M46I I62V L63P I64V A71V L90M I93L, study 64)	12	5.7	18	5.1	7.6	46	4.6
HIV-1 isolate 514 (protease changes: T12S I62V L63P V77I L90M I93L, study 64)	1.8	2.7	2.9	1	1.7	4.3	1.1
HIV-1 isolate 552 (protease changes: L10F I13V K20R V32I L33F M36I L63P A71V V82A L90M, study 64)	14	4.9	66	1	9.3	23	16
HIV-1 isolate 559 (protease changes: L19I L63S E65D I72V V77I, study 64)	0.5	0.5	0.6	0.6	0.6	0.6	0.5
HIV-1 isolate 560 (protease changes: K14R R41K L63P A71T I72E V77I I93L, study 15)	1	0.9	0.8	0.9	0.8	1.4	0.6
HIV-1 isolate 578 (protease changes: L10I V11I T12K I13V K20V V32I L33F E35G M36I N37D M46I I47V I54M R57K Q58E L63P I64V I66V A71V G73S I84V L89V L90M, study 64)	24	36	≥ 800	≥ 800	101	47	≥ 500
HIV-1 isolate 588 (protease changes: E35D L63P, study 64)	1.7	1.2	2.3	1.8	1.6	2	1.5
HIV-1 isolate 606 (protease changes: L10I T12P L19V L33F M46L G48M I54M L63T A71V I72T T74A V82A I84V I93L, study 64)	8.8	94	43	5.8	29	6.3	44
